These results are taken from article PMC10199899.

Construct, isoform or probe ends are uncertain for at least one entry. A negative result means that nothing was seen under these conditions. For some assays here: At least one result comes from cells or an extract, where the contact may be indirect.

Series [1] concerns AjYTHDF (coelomocyte lysate) (Apostichopus japonicus). The series is described as follows: RNA pull-down, immunoblot. The following applies: none, m6A site A33 to U, printed 3' part has a T (GGCTAC), written U here, split over S36 and S37, pull-down: Pierce Magnetic RNA-Protein Pull-Down Kit, 50 pmol RNA, lysate 1 h, protein in an extract, label: 3' biotin. On the technique in general: In western blotting, separated proteins are transferred to a membrane and probed.

Series [2] relates to GST-AjYTHDF (Apostichopus japonicus). The series is described as follows: EMSA. The following applies: 500 ng protein; none; m6A site A33 to U; printed 3' part has a T (GGCTAC), written U here; split over S36 and S37; EMSA: LightShift Chemiluminescent RNA EMSA Kit binding buffer (composition and pH not stated), room temperature 20 min, 6% native gel in 0.5x TBE; recombinant protein; protein details: GST; label: 3' biotin. For orientation: Mobility shift assays separate free from complexed probe on a gel.

“AGGUAUCAUUCAGCCCAAAUGCUGCUACACGGUCUCUGCUUACAGGCUAC [AjULK Mut probe]”: the binding result in series [1] and in series [2] was “no binding” in each case.
